Source: ChEMBL document CHEMBL3988442, “University of Dundee, Small-Polar-MMV Screening Library” (2021).

Mtb glucose medium: 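Phenotypic screen: M. tuberculosis growth, glucose 7H9 medium, 3 days; the read-out is not stated. Tested at 500 µM. The record gives no direction; compounds that gave an IC50 in retests scored well above the rest, so higher reads as more growth inhibition. About 18,000 compounds were tested under these conditions; 7.9% (about 1,400) showed 50% or more at least once.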
Mtb cholesterol medium: 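Growth of Mycobacterium tuberculosis over 4 days (cholesterol / DPPC medium with tyloxapol); the read-out is not stated. Concentration: 500 µM. Direction is inferred from retests: higher values go with more growth inhibition. About 18,000 compounds were tested under these conditions; 5% (about 900) showed 50% or more at least once.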

Values are the deposited “Percent Effect”, in %. The controls that fix the scale are not given in the record; negative values are as filed. Many other results are left out here, so strong results are more common than in the screen. A dash means the value is not listed here; it may have been measured.

| # | Compound | Mtb glucose medium | Mtb cholesterol medium |
|---|---|---|---|
| 1 | `Cc1ncccc1NS(=O)(=O)CCc1ccccc1` | 2.43 | -2.329 |
| 2 | `CNC(=O)CN1CCN(Cc2cncn2C(C)C)CC1` | 2.54 | - |
| 3 | `N[C@H]1CCN(C(=O)CCc2cc(F)ccc2F)C1` | 21.49 | 6.322 |
| 4 | `OCCCNC1(c2nccs2)CCCC1` | - | -7.378 |
| 5 | `CC(=O)N1CCCn2nc(-c3cccc(F)c3)cc2C1` | - | 6.627 |
| 6 | `COC(=O)N(C)CC(=O)NCc1ccccc1` | 13.25 | - |
| 7 | `COCCN(C(=O)c1sccc1OC)c1ccncc1` | - | 5.333 |
| 8 | `COCc1nc(C)c(CNC(=O)c2cccc(C)n2)s1` | - | 10.86 |
| 9 | `CS(=O)(=O)CCSCc1ccn(-c2ccc(F)cc2)n1` | -12.03 | -11.22 |
| 10 | `COCCC1(C(=O)NCc2cc(Cl)ccn2)CC1` | 19.54 | - |
| 11 | `CNS(=O)(=O)c1ccccc1C(=O)OC` | 5.213 | - |
| 12 | `COc1c(F)cccc1CN1C[C@H](O)[C@@H](N(C)C)C1` | 13.44 | 7.716 |
| 13 | `N[C@H]1c2ccccc2C[C@H]1F` | 6.092 | - |
| 14 | `Cc1ccccc1-c1nc(CNC(C)(CO)CO)no1` | 2.966 | - |
| 15 | `CC(C(N)=O)N1CCC(C(=O)NC2CCCCC2)CC1` (configuration not stated) | 10.23 | - |
| 16 | `CC[C@H](N)C(=O)N(C)CCOc1cccc(Cl)c1` | 63.68 | 49.34 |
| 17 | `Cc1cc(C)n(CC(C)CN)n1` (configuration not stated) | - | 12.64 |
| 18 | `CC(C)CCN1CC(C(=O)N2CCCC2)CC1=O` (configuration not stated) | 22.49 | - |
| 19 | `CCOCCOC1CNC1` | 6.7 | - |
| 20 | `CC(C)(C)OC(=O)NCCC1CC(=O)C1` | 17.46 | - |
| 21 | `CN1C(=O)CCC1C(=O)N1CCc2ccc(F)cc21` (configuration not stated) | 11.22 | - |
| 22 | `CCNC(=O)c1cc(N2CCC(COC)CC2)ccn1` | 57.59 | 39.22 |
| 23 | `COc1ccc(NC(=O)CSCC#N)cc1` | 22.29 | 11.29 |
| 24 | `O=C1NCCN(CCn2cncn2)C1c1cccs1` (configuration not stated) | - | -19.59 |
| 25 | `CN(C)C(=O)NCCNc1cccc(Br)c1` | 34.81 | 23.32 |
| 26 | `CN(C)C(=O)CCc1ccc2c(c1)OCCO2` | - | 25.3 |
| 27 | `COc1ccc(CN2C[C@H](O)[C@@H](N(C)C)C2)c(C)c1C` | 75.06 | 65.77 |
| 28 | `N#CCC(=O)c1ccccc1OC(F)F` | 35.12 | - |
| 29 | `COc1ccc2c(c1)CCC(N)C2` (configuration not stated) | 21.8 | - |
| 30 | `CS(=O)(=O)NCCc1csc(N2CCCC2)n1` | 56.33 | - |
| 31 | `Cc1nnc(SCc2ccc(F)cc2Cl)n1CC(N)=O` | 0.6658 | - |
| 32 | `CN1C(=O)CCc2cc(C(=O)N3CCCC3)ccc21` | - | 15.64 |
| 33 | `COc1ccc(OC)c(C(=O)NCc2c[nH]nn2)c1` | 19.59 | - |
| 34 | `NC(=O)C1CCN(C(=O)CCc2ccc(Cl)cc2Cl)C1` (configuration not stated) | 68.32 | 62.11 |
| 35 | `CC(C)COCC(C)NC(=O)CCCn1cccn1` (configuration not stated) | 40.25 | - |
| 36 | `NC(=O)c1ccc2c(n1)NCCC2` | - | 3.532 |
| 37 | `Cc1ccc(C(C)NC(=O)Nc2ccc(=O)n(C)c2)o1` (configuration not stated) | 6.461 | - |
| 38 | `CN(C(=O)c1cccs1)C1CCS(=O)(=O)C1` (configuration not stated) | 11.5 | - |
| 39 | `CN(CCc1ccccn1)CC(=O)NC1CC1` | 6.204 | - |
| 40 | `CNC(=O)COc1ccccc1OC` | -6.95 | - |
| 41 | `CCn1ccc(CN2CCOC(CCOC)C2)n1` (configuration not stated) | 11.5 | - |
| 42 | `Cc1csc(C(=O)N2CC[C@H](O)C2)c1I` | 37.73 | - |
| 43 | `COC(=O)[C@H](C)NC(=O)c1csc(-c2cnccn2)n1` | - | 4.597 |
| 44 | `CN(CCc1ccc(Br)cc1)C(=O)CCCN` | 70.64 | - |
| 45 | `CC1c2cccn2CCN1C(=O)c1ccc(O)nc1` (configuration not stated) | -15.62 | - |
| 46 | `CN(C)CCNC(=O)c1cc(F)cc(F)c1` | 5.362 | - |
| 47 | `CN1CCC(C(=O)NC2CCOCC2)CC1=O` (configuration not stated) | 7.451 | - |

5 of the entries, repeated:

- CN(CCc1ccc(Br)cc1)C(=O)CCCN | Mtb glucose medium: 70.64%
- CC(C)(C)OC(=O)NCCC1CC(=O)C1 | Mtb glucose medium: 17.46%
- CC[C@H](N)C(=O)N(C)CCOc1cccc(Cl)c1 | Mtb glucose medium: 63.68%; Mtb cholesterol medium: 49.34%
- CC(C(N)=O)N1CCC(C(=O)NC2CCCCC2)CC1 (configuration not stated) | Mtb glucose medium: 10.23%
- COCCC1(C(=O)NCc2cc(Cl)ccn2)CC1 | Mtb glucose medium: 19.54%